Assay results as given in patent US11078250B2, “High-activity long-acting hypoglycemic fusion protein as well as preparation method and medical application thereof” (China Pharmaceutical University, priority 2016, dated 2021).

Experiment: Expression in E. coli BL21 (DE3), 12% SDS-PAGE of broken cell supernatant
Settings: lactose induction 25° C. 15 h, supernatant of broken cell solution

Substance | Soluble expression in E. coli (band at about 30 KD in supernatant)
EX-L21K-mhIgG1Fc: fusion protein of Exendin-4 mutant EX-L21K, Gly-rich linker peptide, optimally mutated human IgG1 hinge region and constant regions CH2 and CH3; SEQ ID NO: 11 | expressed in a soluble form
EX-hIgG1Fc: fusion protein of wild Exendin-4, linker peptide, natural human IgG1 hinge region and constant regions CH2 and CH3; SEQ ID NO: 13 | cannot be expressed in a soluble form
